Results of unrelated studies side by side (data: NIAID ChemDB).

All rows: cytotoxicity tests; endpoint: CC50

CCn is the concentration with n% toxicity to the cells. Rows are shuffled and stem from different studies.

{"structure": "C=CCNC(=O)N1CC=CC1=O", "cells": "U-937", "read by": "MTT / absorbance", "value": "848 µM"}
{"structure": "CCSc1nsc(-c2ccccc2)c1C#N", "cells": "HEP-2", "value": "100 µg/mL"}
{"structure": "CCCCCCCCCC(=O)OCCN1CCN(CCCN2c3ccccc3Sc3ccc(C(F)(F)F)cc32)CC1", "cells": "VERO", "value": "3.39 µg/mL"}
{"structure": "O=c1[nH]cnc2c1ncn2[C@H]1CC[C@@H](CO)O1", "cells": "NHDF", "value": ">100 µM"}
{"structure": "COc1nc(OC(F)(F)F)c(NC(=O)C2CCC3C4CN(C(=O)OC(C)(C)C)C5=CC(=O)CC[C@]5(C)C4CC[C@]23C)cc1Br", "cells": "HK-2", "read by": "ATP / luminescence", "value": ">30 µM"}
{"structure": "Cc1ccc(C)c(NC2=CC(=O)C(=O)c3ccccc32)c1", "cells": "VERO", "value": ">10 µg/mL"}
{"structure": "CCOC(=O)NC1N=C(c2ccccc2)c2ccccc2NC1=O", "cells": "HEP-2", "value": "10 µM"}
{"structure": "C[C@H]1[C@@H](O)[C@@H](O)[C@H](O)CN1C", "cells": "Karpas 45 cells", "value": ">100 µg/mL"}
{"structure": "CCN(CC)CCCNc1ccc(C)c2sc3ccccc3c(=O)c12", "cells": "VERO", "value": "7.5 µg/mL"}
{"structure": "O[C@@H]1[C@@H](O)[C@@H](O)CN2CC[C@H](O)[C@@H]12", "cells": "Karpas 45 cells", "value": ">500 µg/mL"}
{"structure": "CC(C)(C)NC(=O)N1CC=C(c2ccccc2)C1=O", "cells": "U-937", "read by": "MTT / absorbance", "value": "529 µM"}
{"structure": "O[C@@H]1[C@@H](O)[C@@H](O)CN2CC[C@@H](O)[C@@H]12", "cells": "Karpas 45 cells", "value": ">500 µg/mL"}
{"structure": "Cc1c2c(cc3c1[nH]c1ccccc13)C(c1ccc(Cl)cc1)=NCC2", "cells": "VERO", "value": "0.45 µg/mL"}
{"structure": "CC(=O)N1C(=O)C(=O)c2ccccc21", "cells": "RAW 264.7", "read by": "MTT / absorbance", "value": "24.62 µM"}
{"structure": "COc1ccc(OC)c(Cc2cnc3nc(N)nc(N)c3c2C)c1", "cells": "VERO", "value": ">10 µg/mL"}
{"structure": "COC(=O)[C@H](Cc1ccccc1)NP(=O)(OC[C@H]1O[C@@H](N2C(=O)NC(=O)C(C)(Br)C2OC)C[C@@H]1N=[N+]=[N-])Oc1ccc(Br)cc1", "cells": "HUMAN SPERM", "value": "300 µM"}
{"structure": "CCCCCCOCCN1CCN(CCCN2c3ccccc3Sc3ccc(C(F)(F)F)cc32)CC1.Cl.Cl", "cells": "VERO", "value": "5.31 µg/mL"}
{"structure": "O=C(Nc1c(Cl)cccc1Cl)NC1N=C(c2ccccc2)c2ccccc2NC1=O", "cells": "HEP-2", "value": "5 µM"}
{"structure": "C[C@@H]1NC[C@@H](O)[C@H](O)[C@@H]1O", "cells": "Karpas 45 cells", "value": ">150 µg/mL"}
{"structure": "CCOC(=O)CSc1nsc(-c2ccccc2)c1C#N", "cells": "L929", "value": "200 µg/mL"}
{"structure": "COC(=O)[C@H](CC(C)C)NP(=O)(OC[C@H]1O[C@@H](N2C(=O)NC(=O)C(C)(Br)C2OC)C[C@@H]1N=[N+]=[N-])Oc1ccc(Br)cc1", "cells": "HUMAN SPERM", "value": ">300 µM"}
{"structure": "CN(C)c1ccc(-c2nnc3c(c(=O)n(C)c(=O)n3C)[n+]2[O-])cc1", "cells": "VERO", "value": "3 µg/mL"}
{"structure": "CCCSc1nsc(-c2ccccc2)c1C(=O)O", "cells": "L929", "value": "500 µg/mL"}
{"structure": "COc1ccc2sc3c(C)ccc(NCC4CCCN5CCCCC45)c3c(=O)c2c1", "cells": "VERO", "value": "3.86 µg/mL"}
{"structure": "COC(=O)[C@H](Cc1c[nH]c2ccccc12)NP(=O)(OC[C@H]1O[C@@H](N2C(=O)NC(=O)C(C)(Br)C2OC)C[C@@H]1N=[N+]=[N-])Oc1ccc(Br)cc1", "cells": "HUMAN SPERM", "value": "20 µM"}
{"structure": "FC(F)(F)c1ccc2c(c1)N(CCCN1CCN(CCC3OCCCO3)CC1)c1ccccc1S2", "cells": "VERO", "value": "7.4 µg/mL"}
{"structure": "CN(C)c1nsc(-c2ccccc2)c1C#N", "cells": "L929", "value": "15 µg/mL"}
{"structure": "COC(=O)[C@H](Cc1c[nH]c2ccccc12)NP(=O)(OC[C@H]1O[C@@H](N2C(=O)NC(=O)C(C)(Br)C2OC)C[C@@H]1N=[N+]=[N-])Oc1ccccc1", "cells": "HUMAN SPERM", "value": "10 µM"}
{"structure": "O=[N+]([O-])c1cc2cccc([N+](=O)[O-])c2o1", "cells": "VERO", "value": "0.5 µg/mL"}
{"structure": "CN1C[C@H](O)[C@H](O)[C@@H](O)[C@@H]1CO", "cells": "Karpas 45 cells", "value": ">500 µg/mL"}
{"structure": "CCCCC1=NCCc2c1cc1c([nH]c3ccccc31)c2C", "cells": "VERO", "value": "1.8 µg/mL"}
{"structure": "OC[C@@H](O)[C@@H]1NC[C@H](O)[C@H]1O", "cells": "Karpas 45 cells", "value": ">50 µg/mL"}
{"structure": "CC(C)C(=O)NC1N=C(c2ccccc2)c2cc(Cl)ccc2NC1=O", "cells": "VERO", "value": "3 µM"}
{"structure": "O=c1c2ccccc2sc2c(CO)ccc(NCCN3CCCCC3)c12", "cells": "VERO", "value": "1.89 µg/mL"}
{"structure": "OC[C@@H](O)[C@H]1NC[C@@H](O)[C@H]1O", "cells": "Karpas 45 cells", "value": ">300 µg/mL"}
{"structure": "O=C(NC1N=C(c2ccccc2)c2ccccc2NC1=O)c1ccccn1", "cells": "HEP-2", "value": "6.4 µM"}
{"structure": "O=C1c2ccccc2C(=O)c2sc(Nc3cccc(Cl)c3)nc21", "cells": "VERO", "value": "2 µg/mL"}
{"structure": "COC(=O)[C@H](C)NP(=O)(OC[C@H]1O[C@@H](N2C(=O)NC(=O)C(C)(Br)C2OC)C[C@@H]1N=[N+]=[N-])Oc1ccc(Br)cc1", "cells": "HUMAN SPERM", "value": ">6 µM"}
{"structure": "O=C(O)[C@H]1NCC[C@@H](O)[C@@H]1O", "cells": "Karpas 45 cells", "value": ">180 µg/mL"}
{"structure": "Nc1ccn(C[C@@H](CO)OCP(=O)(O)O)c(=O)n1", "cells": "NHDF", "value": "200 µM"}

Again, the opening 3 rows:

C=CCNC(=O)N1CC=CC1=O ; cells: U-937 ; read by: MTT / absorbance ; value: 848 µM
CCSc1nsc(-c2ccccc2)c1C#N ; cells: HEP-2 ; value: 100 µg/mL
CCCCCCCCCC(=O)OCCN1CCN(CCCN2c3ccccc3Sc3ccc(C(F)(F)F)cc32)CC1 ; cells: VERO ; value: 3.39 µg/mL